# PSTVd loop 6 mutant pool in Nicotiana benthamiana

From the data files of Wu et al. 2024, doi:10.1371/journal.ppat.1012142.

The pool varies loop 6 of the PSTVd intermediate strain in the pattern UNNNCGNNNG; wild type is UGACCGCGAG (upper and lower strand joined, each 5' to 3', the first 5 letters being the upper strand, closing pairs included).

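Three N. benthamiana plants were inoculated with the whole mutant pool. Progeny were sequenced from the inoculated region (day 5), the margin of the inoculated leaf (day 10) and systemic leaves (day 12).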

Numbers give reads per thousand; 0 = not seen among the reads, higher = more abundant.
Each value is the mean of three plants.
"Pool" is the share in the plasmid pool used as inoculum, on the same scale.
The inoculated region was read from the minus strand, the other sites from the plus strand.
Wild type was 20.7 per thousand in the pool and the most common sequence in every sample (inoculated region 195, 198, 203; leaf margin 629, 591, 734; systemic leaves 942, 870, 868).
Samples held 36,220 to 57,551 reads, so the smallest values rest on one or two reads.
Sequences that differ at fixed positions probably stem from PCR or sequencing errors, and defective variants can be carried along by functional ones.

* UAGCCGGAAG (pool 0.183): inoculated region 0.0994; leaf margin 0.0247; systemic leaves 0
* UGGCCGCGCG (pool 0.209): inoculated region 0.162; leaf margin 0.0261; systemic leaves 0.0534
* UCAUCGUCCG (pool 0.248): inoculated region 0.0836; leaf margin 0; systemic leaves 0
* UCCUCGGGUG (pool 0.222): inoculated region 0.0771; leaf margin 0.00920; systemic leaves 0
* UGCCCGGGAG (pool 0.196): inoculated region 0.131; leaf margin 0.0161; systemic leaves 0
* UGAGCGAUGG (pool 0.248): inoculated region 0.0953; leaf margin 0.00773; systemic leaves 0
* UUCUCGUGGG (pool 0.235): inoculated region 0.0902; leaf margin 0; systemic leaves 0
* UCAACGGCGG (pool 0.170): inoculated region 0.130; leaf margin 0.00773; systemic leaves 0
* UUCGCGGGGG (pool 0.183): inoculated region 0.0301; leaf margin 0; systemic leaves 0
* UCUCCGGACG (pool 0.222): inoculated region 0.107; leaf margin 0.0184; systemic leaves 0
* UGGUCGGGUG (pool 0.170): inoculated region 0.0836; leaf margin 0; systemic leaves 0
* UUCCCGAAAG (pool 0.209): inoculated region 0.0829; leaf margin 0.00920; systemic leaves 0
* UUCACGAUAG (pool 0.405): inoculated region 0.0768; leaf margin 0.0464; systemic leaves 0
* UUCUCGAUGG (pool 0.392): inoculated region 0.0838; leaf margin 0.00773; systemic leaves 0.00673
* UAACCGACCG (pool 0.196): inoculated region 0.114; leaf margin 0.0169; systemic leaves 0
* UUGGCGGACG (pool 0.196): inoculated region 0.101; leaf margin 0; systemic leaves 0
* UGUACGGUCG (pool 0.301): inoculated region 0.119; leaf margin 0.00773; systemic leaves 0
* UUUCCGCUGG (pool 0.222): inoculated region 0.0594; leaf margin 0.0155; systemic leaves 0
* UAGGCGAUAG (pool 0.275): inoculated region 0.113; leaf margin 0.103; systemic leaves 0
* UCGCCGAUCG (pool 0.418): inoculated region 0.119; leaf margin 0; systemic leaves 0
* UAGGCGACUG (pool 0.157): inoculated region 0.0659; leaf margin 0; systemic leaves 0
* UUUCCGGGCG (pool 0.209): inoculated region 0.101; leaf margin 0.00773; systemic leaves 0
* UGCGCGAUUG (pool 0.458): inoculated region 0.0592; leaf margin 0; systemic leaves 0.00673
* UCCACGGCAG (pool 0.183): inoculated region 0.0713; leaf margin 0.00773; systemic leaves 0

A selection of 2 entries from above:

{"sequence": "UGUACGGUCG", "pool": "0.301", "inoculated region": 0.119, "leaf margin": 0.00773, "systemic leaves": 0}
{"sequence": "UGAGCGAUGG", "pool": "0.248", "inoculated region": 0.0953, "leaf margin": 0.00773, "systemic leaves": 0}